Target: recombinant RBD of the spike protein of MERS-CoV (MERS-CoV, UniProt K9N5Q8 381-588)
Test: SPR, RBD on CM5 chip

B1: P2B-2F6 (antibody, V domains shown)
VH: QVQLQESGPGLVKPSETLSLTCTVSGYSISSGYYWGWIRQPPGKGLEWIGSIYHSGSTYYNPSLKTRVTISVDTSKNQFSLKLSSVTAADTAVYYCARAVVGIVVVPAAGRRAFDIWGQGTMVTVSS
VL: QSALTQPPSASGSPGQSVTISCTGTSSDVGGYNYVSWYQQHPGKAPKLMIYEVSKRPSGVPDRFSGSKSGNTASLTVSGLQAEDEADYYCSSYAGSNNLVFGGGTKLTVLG
notes: human IgG1, lambda
binding result: no binding (tested: not printed)

B2: P2B-2G11 (antibody, V domains shown)
VH: EVQLVESGGGLVQPGRSLRLSCAASGFTFDDYAMHWVRQAPGKGLEWVSGISWNGGIIGYADSVKGRFTISRDNAKTSLYLQMNSLKPEDTALYYCAKVAGRGDYDYYYGMDVWGQGTTVTVSS
VL: QSVLTQPPSVSGAPGQRVTISCTGSSSNIGAGYDVHWYQQLPGTAPKLLIYGNNNRPSGVPDRFSGSKSGTSASLAITGLQAEDEADYYCQSYDSSLSGSVFGGGTKLTVLG
notes: human IgG1, lambda
binding result: no binding (tested: not printed)

B3: P2B-2G4 (antibody, V domains shown)
VH: QVQLVESGGGVVQPGRSLRLSCAASGFTFSSYGMHWVRQAPGKGLEWVAVIWYDGSNKYYADSVKGRFTISRDNSKNTLYLQMNSLRAEDTAVYYCARGAAMVWLDYWGQGTLVTVSS
VL: QSALTQPRSVSGSPGQSVTISCTGTSSDVGGYNYVSWYQQHPGKAPKLMIYDVSKRPSGVPDRFSGSKSGNTASLTISGLQAEDEADYYCCSYAGSYTFVVFGGGTKLTVLG
notes: human IgG1, lambda
binding result: no binding (tested: not printed)
